Data published in patent publication US20240091310A1, “COMPOSITIONS AND METHODS USEFUL FOR THE PREVENTION AND/OR TREATMENT OF DISEASE IN MAMMALS” (VIRO-GEN (PTY) LTD, priority 2020, published 2024).

Experiment: Levels of Ksp37 before and 4 hrs after HIV infection, LTNPs vs Progressors
Set-up: species or system human

B1: Ksp37: Killer-specific secretory protein of 37 kDa, 223 amino acids, produced by cytotoxic lymphocytes; accession AB021123 (protein, UniProt Q9BYJ0 20-223, looked up)
Fibroblast growth …: QAPRQKQGSTGEEFHFQTGGRDSCTMRPSSLGQGAGEVWLRVDCRNTDQTYWCEYRGQPSMCQAFAADPKPYWNQALQELRRLHHACQGAPVLRPSVCREAGPQAHMQQVTSSLKGSPEPNQQPEAGTPSLRPKATVKLTEATQLGKDSMEELGKAKPTTRPTAKPTQPGPRPGGNEEAKKKAWEHCWKPFQALCAFLISFFRG
**Q.** For B1, which “Initial Ksp37 levels before HIV infection” value (LTNPs) is on record?
**A.** The value was 441 ± 235 ng/mL.

**Q.** What about the “Ksp37 levels 4 hrs after HIV infection” value (LTNPs) of the same molecule?
**A.** Its value is 800 ± 529 ng/mL.

**Q.** And the “Initial Ksp37 levels before HIV infection” value (Progressors)?
**A.** Its value is 380 ± 200 ng/mL.

**Q.** What about the “Ksp37 levels 4 hrs after HIV infection” value (Progressors) of the same molecule?
**A.** Its value is 246 ± 127 ng/mL.
